Literature values as cited in patent US6476002B1 (priority 1997, dated 2002).

System: placental or endometrial growth
Conditions: in vivo

With CO[C@@H]1[C@H](OC(=O)NC(=O)CCl)CC[C@]2(CO2)[C@H]1[C@@]1(C)O[C@@H]1CC=C(C)C [AGM-1470] as the molecule, how does the “effect on female reproduction, placental or endometrial growth” value read?
The value was “inhibits”.
